{"source": "patent US20250009777A1", "about": "(priority 2021, published 2025)", "system": "AG129 mouse-adapted DENV2", "format": "in vivo, mice", "conditions": "three days post infection, 50 and 150 mg/kg groups compared with vehicle, n=5 per group; FIG. 2B", "data": [{"smiles": "O=c1ccn([C@@H]2O[C@H](CO)[C@@H](O)[C@H]2O)c(=S)[nH]1", "note": "[2-thiouridine]", "values": [{"measurement": "viral RNA level in the serum (log10(number of DENV2 copies)/mL)", "value": "decreased in a 2-thiouridine dosage-dependent manner"}]}]}
